Compound potency records, mixed from different reports. Data source: NIAID ChemDB in PubChem.

Shared fields: target-level tests

a–b is a range or a potency band. ICn is the concentration giving n% inhibition. An empty or dashed field is not shown. Lines come from different laboratories, so protocols vary. Inhibition is in % at the dose shown (toxicity tests: loss of growth or viability).

compound,endpoint,target,organism,tested at,strain,method,value
CC(C(=O)O)P(=O)(O)O,IC50,DNA polymerase,Hepatitis B virus,,,,>500 µM
O=c1c(O)c(-c2cc(O)c(O)c(O)c2)oc2cc(O)ccc12,inhibition,Replicase complex,Hepatitis C virus,20 µM,J4,SYBR Green,55.9%
O=P(O)(O)OP(=O)(O)O,IC50,DNA polymerase,Hepatitis B virus,,,,~500 µM
O=C(CCCCCCC(=O)Nc1ccc(-c2nc3ccccc3[nH]2)cc1)Nc1ccc(-c2nc3ccccc3[nH]2)cc1,IC50,Nonstructural protein 3 NTPase/helicase,Hepatitis C virus,,,,<25 µg/mL
CC(=O)N[C@@H](CC(=O)O)C(=O)N[C@@H](CCC(=O)O)C(=O)N[C@H](C(=O)N[C@@H](CCC(=O)O)C(=O)N[C@H](C(=O)N[C@@H](CC(F)F)C(=O)O)C1CCCCC1)C(c1ccccc1)c1ccccc1,IC50,NS3/NS4A protease,Hepatitis C virus,,,,0.03 µM
O=P(O)(O)C(O)P(=O)(O)O,IC50,DNA polymerase,Hepatitis B virus,,,,>500 µM
CC[C@H](C)[C@H](NC(=O)[C@@H](NC(=O)[C@H](CCC(=O)O)NC(=O)[C@H](CC(=O)O)NC(C)=O)C(c1ccccc1)c1ccccc1)C(=O)N[C@@H](CC1CCCCC1)C(=O)N[C@@H](CS)C(N)=O,IC50,NS3/NS4A protease,Hepatitis C virus,,,,3.1 µM
CCCC(NC(=O)[C@@H]1C2CCCC2CN1C(=O)[C@@H](NC(=O)[C@@H](CC(C1CCCCC1)C1CCCCC1)NC(=O)c1cnccn1)C(C)(C)C)C(=O)C(=O)NC1CC1,Ki,Nonstructural protein 3 protease,Hepatitis C virus,,,,0.655 µM
O=c1cc(-c2ccc(O)cc2)oc2cc(O)ccc12,inhibition,Replicase complex,Hepatitis C virus,20 µM,J4,SYBR Green,25.7%
CC(=O)N[C@@H](CC(=O)O)C(=O)N[C@@H](CCC(=O)O)C(=O)N[C@H](C(=O)N[C@@H](CCC(=O)O)C(=O)N[C@@H](CC1CCCCC1)C(=O)N[C@@H](CC(F)F)C(=O)C(=O)C(=O)O)C(c1ccccc1)c1ccccc1,IC50,NS3/NS4A protease,Hepatitis C virus,,,,0.00001 µM
O=C(O)CCP(=O)(O)O,IC50,DNA polymerase,Hepatitis B virus,,,,>500 µM
CN1CCN(c2cc(C(=O)Nc3ccc4cn[nH]c4c3)c(F)cc2F)CC1,IC50,Reverse transcriptase,Hepatitis B virus,,,,0.1–1 µg/mL
CCC1CCC(C(=O)N(c2cc(-c3ccccc3)sc2C(=O)O)C(C)C)CC1,IC50,NS3 ATPase,Hepatitis C virus,,,,<5 µM
CCC[C@H](NC(=O)[C@@H]1C2CCCC2CN1C(=O)[C@@H](NC(=O)[C@@H](NC(=O)c1cnccn1)C1CCCCC1)C(C)(C)C)C(=O)C(=O)N[C@@H](C)c1ccncc1,Ki,Nonstructural protein 3 protease,Hepatitis C virus,,,,0.053 µM
O=C(O)C(=O)O,IC50,DNA polymerase,Hepatitis B virus,,,,>500 µM
Cc1cc(N(C(=O)c2ccc(Cl)cc2Cl)C(C)C)c(C(=O)O)s1,IC50,NS3 ATPase,Hepatitis C virus,,,,<5 µM
O=C(Nc1ccc2cn[nH]c2c1)c1cc(N2CCC(O)CC2)c(F)cc1F,inhibition,Nonstructural protein 5B,Hepatitis C virus,1 µg/mL,,,55%
O=C1c2ccc(O)cc2O[C@H](c2cc(O)c(O)c(O)c2)[C@H]1O,inhibition,Replicase complex,Hepatitis C virus,20 µM,J4,SYBR Green,11%
CCC[C@H](NC(=O)[C@@H]1C2CCCC2CN1C(=O)[C@@H](NC(=O)[C@@H](NC(=O)c1cnccn1)C(C)CC)C(C)(C)C)C(=O)C(=O)NC1CC1,Ki,Nonstructural protein 3 protease,Hepatitis C virus,,,,0.18 µM
O=c1cc(-c2ccccc2)oc2ccccc12,inhibition,Replicase complex,Hepatitis C virus,20 µM,J4,SYBR Green,13.1%
O=C(Nc1ccc2cn[nH]c2c1)c1cc(N2CCN(CCO)CC2)c(F)cc1F,inhibition,Nonstructural protein 5B,Hepatitis C virus,0.1 µg/mL,,,0%
CC(C)N(C(=O)c1ccc(Cl)cc1Cl)c1cc(Br)sc1C(=O)O,IC50,NS3 ATPase,Hepatitis C virus,,,,<5 µM
O=C(Nc1ccc(-c2nc3ccccc3o2)cc1)c1ccc(C(=O)Nc2ccc(-c3nc4ccccc4o3)cc2)cc1,IC50,Nonstructural protein 3 NTPase/helicase,Hepatitis C virus,,,,>25 µg/mL
O=c1c(O)c(-c2ccc(O)c(O)c2)oc2cc(O)c(O)c(O)c12,inhibition,Replicase complex,Hepatitis C virus,20 µM,J4,SYBR Green,85.6%
C=CCN(C(=O)CCCC)c1cc(-c2ccccc2)sc1C(=O)O,IC50,NS3 ATPase,Hepatitis C virus,,,,5–20 µM
CCC[C@H](NC(=O)[C@@H]1C2CCCC2CN1C(=O)[C@@H](NC(=O)[C@@H](NC(=O)c1cnccn1)C1CCCCC1)C(C)(C)C)C(=O)C(=O)N[C@@H](C)Cc1ccccc1,Ki,Nonstructural protein 3 protease,Hepatitis C virus,,,,0.046 µM
CC(=O)N[C@@H](CC(=O)O)C(=O)N[C@@H](CCC(=O)O)C(=O)N[C@H](C(=O)N[C@@H](CCC(=O)O)C(=O)N[C@@H](CC1CCCCC1)C(=O)N[C@@H](CS)C(=O)O)C(c1ccccc1)c1ccccc1,IC50,NS3/NS4A protease,Hepatitis C virus,,,,0.05 µM
O=c1cc(-c2ccc(O)c(O)c2)oc2cc(O)cc(O)c12,inhibition,Replicase complex,Hepatitis C virus,20 µM,J4,SYBR Green,81.7%
CN(C(=O)c1cc(-c2ccccc2)sc1C(=O)O)c1ccc(Cl)cc1Cl,IC50,NS3 ATPase,Hepatitis C virus,,,,5–20 µM
CCC[C@H](NC(=O)[C@@H]1C2CCCC2CN1C(=O)[C@@H](NC(=O)[C@@H](NC(=O)c1cnccn1)C(C)(C)C)C(C)(C)C)C(=O)C(=O)NC1CC1,Ki,Nonstructural protein 3 protease,Hepatitis C virus,,,,0.17 µM
O=C(NCCCCCCNC(=O)Nc1ccc(-c2nc3ccccc3[nH]2)cc1)Nc1ccc(-c2nc3ccccc3[nH]2)cc1,IC50,Nonstructural protein 3 NTPase/helicase,Hepatitis C virus,,,,>25 µg/mL
CCC[C@@H](C=O)NC(=O)[C@H](CC)NC(=O)[C@@H](NC(=O)[C@@H](NC(=O)[C@H](CC(=O)O)NC(=O)[C@H](CCC(=O)O)NC(C)=O)C(C)C)C(C)C,IC50,NS3/NS4A protease,Hepatitis C virus,,,,12 µM
COc1cccc2sc(N)nc12,IC50,Nonstructural protein 3 NTPase/helicase,Hepatitis C virus,,,,>25 µg/mL
O=C(Nc1ccc2[nH]ncc2c1)c1cc(N2CCN(CCO)CC2)c(F)cc1F,inhibition,Reverse transcriptase,Hepatitis B virus,0.1 µg/mL,,,30%
O=C(P(=O)(O)O)P(=O)(O)O,IC50,DNA polymerase,Hepatitis B virus,,,,~500 µM
O=C(Nc1ccc2[nH]ncc2c1)c1cc(N2CCC(O)CC2)c(F)cc1F,IC50,Reverse transcriptase,Hepatitis B virus,,,,0.01–0.1 µg/mL
O=C(CCCCC(=O)Nc1nccs1)Nc1nccs1,IC50,Nonstructural protein 3 NTPase/helicase,Hepatitis C virus,,,,>25 µg/mL
Cc1ccc(C(=O)N(c2cc(-c3cccc(C(F)(F)F)c3)sc2C(=O)O)C(C)C)c(OCc2ccccc2)c1,IC50,NS3 ATPase,Hepatitis C virus,,,,<5 µM
CCCC(NC(=O)[C@@H]1C2CCCC2CN1C(=O)[C@@H](NC(=O)[C@H](CC1CCCCC1)NC(=O)c1cnccn1)C(C)(C)C)C(=O)C(=O)NC1CC1,Ki,Nonstructural protein 3 protease,Hepatitis C virus,,,,0.07 µM
CC(C)(C)OC(=O)N1CCCC(N(C(=O)c2ccc(Cl)cc2Cl)c2cc(-c3ccccc3)sc2C(=O)O)CC1,IC50,NS3 ATPase,Hepatitis C virus,,,,<5 µM
CC(=O)N[C@@H](CC(=O)O)C(=O)N[C@@H](CCC(=O)O)C(=O)N[C@@H](CC(C)C)C(=O)N[C@@H](CCC(=O)O)C(=O)N[C@@H](CC1CCCCC1)C(=O)N[C@@H](CS)C(=O)O,IC50,NS3/NS4A protease,Hepatitis C virus,,,,0.14 µM
CC(C)N(C(=O)C1CC=CCC1)c1cc(-c2ccccc2)sc1C(=O)O,IC50,NS3 ATPase,Hepatitis C virus,,,,5–20 µM
Nc1ccc(-c2nc3ccccc3o2)cc1,IC50,Nonstructural protein 3 NTPase/helicase,Hepatitis C virus,,,,>25 µg/mL
O=c1cc(-c2ccc(O)c(O)c2)oc2c(O)c(O)ccc12,inhibition,Replicase complex,Hepatitis C virus,20 µM,J4,SYBR Green,30.9%
CC(C)c1ccc(S(=O)(=O)Nc2cc(-c3ccccc3)sc2C(=O)O)cc1,IC50,NS3 ATPase,Hepatitis C virus,,,,5–20 µM
C=C[C@@H]1C[C@]1(NC(=O)[C@@H]1C[C@@H](Oc2nccc3ccc(Br)cc23)CN1C(C)=O)C(=O)NS(=O)(=O)C1CC1,IC50,Nonstructural protein 3/4A,Hepatitis C virus,,1b WT,FRET,2.458 µM

4 of the rows above, restated:

CCC1CCC(C(=O)N(c2cc(-c3ccccc3)sc2C(=O)O)C(C)C)CC1 ; endpoint: IC50 ; target: NS3 ATPase ; organism: Hepatitis C virus ; value: <5 µM
C=C[C@@H]1C[C@]1(NC(=O)[C@@H]1C[C@@H](Oc2nccc3ccc(Br)cc23)CN1C(C)=O)C(=O)NS(=O)(=O)C1CC1 ; endpoint: IC50 ; target: Nonstructural protein 3/4A ; organism: Hepatitis C virus ; strain: 1b WT ; method: FRET ; value: 2.458 µM
O=C(O)C(=O)O ; endpoint: IC50 ; target: DNA polymerase ; organism: Hepatitis B virus ; value: >500 µM
O=C(Nc1ccc(-c2nc3ccccc3o2)cc1)c1ccc(C(=O)Nc2ccc(-c3nc4ccccc4o3)cc2)cc1 ; endpoint: IC50 ; target: Nonstructural protein 3 NTPase/helicase ; organism: Hepatitis C virus ; value: >25 µg/mL